{
  "sequences": {"note": "Sequences of proteins named here, by UniProt entry; tags and fusion partners are left off. Residues count along the entry.", "UniProt Q93009, 62-205": "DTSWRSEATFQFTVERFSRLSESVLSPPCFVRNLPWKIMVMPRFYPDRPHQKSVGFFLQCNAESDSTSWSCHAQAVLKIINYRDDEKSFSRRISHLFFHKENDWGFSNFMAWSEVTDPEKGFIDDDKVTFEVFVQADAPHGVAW"},
  "source": "paper PMC3589550",
  "about": "(Nature structural & molecular biology, 2011)",
  "target": "HAUSP TRAF domain (HAUSP^62–205) (Homo sapiens, UniProt Q93009)",
  "assay_type": "binding",
  "conditions": "ITC; deletion of upstream region",
  "data": [
    {"smiles": "CSCC[C@H](NC(=O)CNC(=O)[C@H](CO)NC(=O)[C@@H](NC(=O)[C@H](CO)NC(=O)[C@H](C)NC(=O)CNC(=O)[C@@H](N)CCC(=O)O)[C@@H](C)O)C(=O)O", "note": "[vIRF4^209–216]", "values": [
      {"measurement": "fold decrease in TRAF binding affinity compared with vIRF4^202–216", "result": 25, "unit": "fold"}
    ]}
  ]
}
